Sequences of proteins named here, by UniProt entry; tags and fusion partners are left off. A change or cut given only in a name is not applied to a line headed by its entry. Residues count along the entry.
UniProt P27958, 2421-2990 limits assumed, stated change not applied: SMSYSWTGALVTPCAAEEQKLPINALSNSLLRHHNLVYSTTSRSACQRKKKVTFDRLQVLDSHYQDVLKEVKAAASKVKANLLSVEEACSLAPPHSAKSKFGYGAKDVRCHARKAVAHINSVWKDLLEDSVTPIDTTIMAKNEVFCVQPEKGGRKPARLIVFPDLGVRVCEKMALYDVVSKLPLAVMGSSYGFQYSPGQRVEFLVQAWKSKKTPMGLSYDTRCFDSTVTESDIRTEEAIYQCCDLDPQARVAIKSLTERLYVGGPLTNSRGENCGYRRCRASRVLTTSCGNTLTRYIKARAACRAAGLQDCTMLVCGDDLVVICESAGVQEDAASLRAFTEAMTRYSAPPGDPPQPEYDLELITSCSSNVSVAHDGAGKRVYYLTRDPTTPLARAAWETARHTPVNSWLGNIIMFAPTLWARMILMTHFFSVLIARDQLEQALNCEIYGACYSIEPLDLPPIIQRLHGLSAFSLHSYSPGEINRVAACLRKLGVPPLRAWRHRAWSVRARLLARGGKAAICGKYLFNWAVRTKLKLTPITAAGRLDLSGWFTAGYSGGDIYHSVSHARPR
UniProt P26663, 2420-2989 limits assumed, stated change not applied: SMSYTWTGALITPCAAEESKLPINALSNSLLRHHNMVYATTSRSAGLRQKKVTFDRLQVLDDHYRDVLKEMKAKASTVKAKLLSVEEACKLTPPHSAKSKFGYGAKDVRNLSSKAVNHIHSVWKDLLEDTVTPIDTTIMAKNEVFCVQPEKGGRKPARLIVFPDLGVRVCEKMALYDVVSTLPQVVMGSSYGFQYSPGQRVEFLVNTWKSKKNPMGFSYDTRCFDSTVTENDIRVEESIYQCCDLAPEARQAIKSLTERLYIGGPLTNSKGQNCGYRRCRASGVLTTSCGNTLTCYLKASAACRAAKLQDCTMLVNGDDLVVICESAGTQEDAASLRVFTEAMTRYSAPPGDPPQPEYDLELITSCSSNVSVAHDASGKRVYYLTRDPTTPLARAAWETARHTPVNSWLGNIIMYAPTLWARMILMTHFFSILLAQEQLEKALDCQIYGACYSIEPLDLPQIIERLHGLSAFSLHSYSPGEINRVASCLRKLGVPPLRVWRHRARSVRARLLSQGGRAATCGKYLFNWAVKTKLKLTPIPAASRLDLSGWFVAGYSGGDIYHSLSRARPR

According to US8415351B2 (priority 2007, dated 2013):

Key:
[1] = target: HCV polymerase 1A (Δ21 NS5B, H77) (Hepatitis C virus genotype 1a, UniProt P27958); settings: read-out: IC50 1a
[2] = target: HCV polymerase 1B (Δ21 NS5B, BK) (Hepatitis C virus genotype 1b, UniProt P26663); settings: read-out: IC50 1b

SMILES: COc1c(-c2ccc3cc(NS(C)(=O)=O)ccc3c2)cc(-n2ccc(=O)[nH]c2=O)cc1-c1ccc2cc(NS(C)(=O)=O)ccc2c1
- IC50 [1]: 0.1 to 1 µM
- IC50 [2]: > 1 µM
